Results on one compound are retold here after PubChem BioAssay AID1033 (Sanford-Burnham Center for Chemical Genomics, 2008).

By UniProt entry, the sequences of proteins in these tests, tags left out.
UniProt P0A6Y8, whole entry, looked up: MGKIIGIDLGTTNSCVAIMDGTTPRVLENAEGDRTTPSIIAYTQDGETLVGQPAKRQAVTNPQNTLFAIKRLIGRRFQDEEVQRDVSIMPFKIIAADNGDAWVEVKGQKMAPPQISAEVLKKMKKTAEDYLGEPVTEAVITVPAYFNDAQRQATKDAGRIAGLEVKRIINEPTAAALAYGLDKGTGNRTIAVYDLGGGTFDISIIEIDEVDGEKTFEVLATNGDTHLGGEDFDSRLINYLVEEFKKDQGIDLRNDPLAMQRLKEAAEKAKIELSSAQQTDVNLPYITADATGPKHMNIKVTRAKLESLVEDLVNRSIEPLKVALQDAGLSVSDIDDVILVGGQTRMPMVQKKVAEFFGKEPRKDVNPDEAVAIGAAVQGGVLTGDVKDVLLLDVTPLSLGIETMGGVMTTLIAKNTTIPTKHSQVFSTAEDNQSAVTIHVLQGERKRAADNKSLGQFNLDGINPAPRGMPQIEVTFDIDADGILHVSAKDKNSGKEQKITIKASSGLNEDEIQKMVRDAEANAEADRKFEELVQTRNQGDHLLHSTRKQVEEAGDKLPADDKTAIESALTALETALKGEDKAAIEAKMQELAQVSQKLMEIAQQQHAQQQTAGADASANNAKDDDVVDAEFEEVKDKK

Structures are written as SMILES. The source made the active and inactive calls. The rule behind the calls is not given here. Where only a bound is given, the exact number is not on record here.

For the assay, the target named is Chaperone protein DnaK (Escherichia coli (strain K12)) (UniProt P0A6Y8). In words: E. coli DnaK SBD ligand binding – biophysical, NMR, chaperone (AID 1033). Conditions: Purified DnaK SBD.

One may read the Kd as a measure of binding affinity in units of concentration. Turning to `Cc1c2non([O-])c-2c(C)[n+](=O)[n+]1[O-]`, the Kd was inactive: > 4 mM.
